Compound potency records, mixed from different reports. Data source: NIAID ChemDB in PubChem.

All rows: tests in culture; agent: Mycobacterium avium intracellulare

An empty or dashed field is not shown.

smiles,strain,read-out,dose,value
C[C@@H]1CN(c2c(F)c(N)c3c(=O)c(C(=O)O)cn(C4CC4)c3c2F)C[C@H](C)N1,16 isolates,MIC90,-,12.5 µg/mL
CCn1cc(C(=O)O)c(=O)c2cc(F)c(N3CCNCC3)cc21,-,MIC,-,24.5 µg/mL
C[C@H]1COc2c(N3CCN(C)CC3)c(F)cc3c(=O)c(C(=O)O)cn1c23,20 strains,MIC50,-,25 µg/mL
CO[C@H]1/C=C/O[C@@]2(C)Oc3c(C)c(O)c4c(=O)c(c5oc6cc(N7CCN(CC(C)C)CC7)cc(=O)c6nc5c4c3=C2O)NC(=O)/C(C)=C\C=C\[C@H](C)[C@H](O)[C@@H](C)[C@@H](O)[C@@H](C)[C@H](OC(C)=O)[C@@H]1C,20 strains,MIC90,-,0.1 µg/mL
NC[C@H]1O[C@H](O[C@H]2[C@H](O)[C@@H](O[C@H]3O[C@H](CO)[C@@H](O)[C@H](N)[C@H]3O)[C@H](N)C[C@@H]2N)[C@H](O)[C@@H](O)[C@@H]1O,N-481 (HIV-),MIC,-,4 µg/mL
N[C@@H]1CN(c2c(F)cc3c(=O)c(C(=O)O)cn([C@@H]4C[C@@H]4F)c3c2Cl)CC12CC2,16 isolates,MIC90,-,25 µg/mL
CCn1cc(C(=O)O)c(=O)c2cc(F)c(N3CCNCC3)nc21,-,MIC,-,27.7 µg/mL
CO[C@H]1/C=C/O[C@@]2(C)Oc3c(C)c(O)c4c(O)c(c(/C=N/N5CCN(C)CC5)c(O)c4c3C2=O)NC(=O)/C(C)=C\C=C\[C@H](C)[C@H](O)[C@@H](C)[C@@H](O)[C@@H](C)[C@H](OC(C)=O)[C@@H]1C,58 isolates,MIC90,-,3.13 µg/mL
COc1c(N2CCNC(C)C2)c(F)cc2c(=O)c(C(=O)O)cn(C3CC3)c12,16 isolates,MIC50,-,12.5 µg/mL
COc1c(N2CCNC(C)C2)c(F)cc2c(=O)c(C(=O)O)cn(C3CC3)c12,20 strains,MIC90,-,12.5 µg/mL
CO[C@H]1/C=C/O[C@@]2(C)Oc3c(C)c(O)c4c(O)c(c(/C=N/N5CCN(C)CC5)c(O)c4c3C2=O)NC(=O)/C(C)=C\C=C\[C@H](C)[C@H](O)[C@@H](C)[C@@H](O)[C@@H](C)[C@H](OC(C)=O)[C@@H]1C,Serovar 8,inhibition,2.5 µg/mL,63%
CNC1CCCN(c2c(F)cc3c(=O)c(C(=O)O)cn(C4CC4)c3c2OC)C1,16 isolates,MIC50,-,50 µg/mL
CC[C@H](C)N1CCN(c2cc(=O)c3nc4c(oc3c2)c2c(=O)c3c(O)c(C)c5c(c34)=C(O)[C@@](C)(O/C=C/[C@H](OC)[C@@H](C)[C@@H](OC(C)=O)[C@H](C)[C@H](O)[C@H](C)[C@@H](O)[C@@H](C)/C=C/C=C(/C)C(=O)N2)O5)CC1,31 strains,MIC50,-,0.1 µg/mL
C[C@H]1COc2c(N3CCN(C)CC3)c(F)cc3c(=O)c(C(=O)O)cn1c23,20 strains,MIC50,-,25 µg/mL
CCn1cc(C(=O)O)c(=O)c2cnc(N3CCCC3)nc21,-,MIC,-,330.9 µg/mL
CCn1cc(C(=O)O)c(=O)c2cc(F)c(N3CCNC(C)C3)c(F)c21,16 isolates,MIC90,-,100 µg/mL
CC[C@@H](C)N1CCN(c2cc(=O)c3nc4c(oc3c2)c2c(=O)c3c(O)c(C)c5c(c34)=C(O)[C@@](C)(O/C=C/[C@H](OC)[C@@H](C)[C@@H](OC(C)=O)[C@H](C)[C@H](O)[C@H](C)[C@@H](O)[C@@H](C)/C=C/C=C(/C)C(=O)N2)O5)CC1,31 strains,MIC90,-,0.1 µg/mL
CCn1cc(C(=O)O)c(=O)c2cc(F)c(-n3cccc3)cc21,-,MIC,-,47.2 µg/mL
Cc1c(F)c(N2CCNC(C)C2)cc2c1c(=O)c(C(=O)O)cn2C1CC1,16 isolates,MIC50,-,12.5 µg/mL
COc1c(N2CCNC(C)C2)c(F)cc2c(=O)c(C(=O)O)cn(C3CC3)c12,-,MIC,-,0.8 µg/mL
CO[C@H]1/C=C/O[C@@]2(C)Oc3c(C)c(O)c4c(O)c(c(/C=N/N5CCN(C)CC5)c(O)c4c3C2=O)NC(=O)/C(C)=C\C=C\[C@H](C)[C@H](O)[C@@H](C)[C@@H](O)[C@@H](C)[C@H](OC(C)=O)[C@@H]1C,CIPT 140310019,MIC,-,0.05 µg/mL
CCn1cc(C(=O)O)c(=O)c2ccc(-c3ccncc3)cc21,-,MIC,-,23.5 µg/mL
CC[C@H]1OC(=O)[C@H](C)[C@@H](O[C@H]2C[C@@](C)(OC)[C@@H](O)[C@H](C)O2)[C@H](C)[C@@H](O[C@@H]2O[C@H](C)C[C@H](N(C)C)[C@H]2O)[C@](C)(OC)C[C@@H](C)C(=O)[C@H](C)[C@@H](O)[C@]1(C)O,20 strains,MIC50,-,6.25 µg/mL

Repeating the final 2 entries:

smiles,strain,read-out,dose,value
CCn1cc(C(=O)O)c(=O)c2ccc(-c3ccncc3)cc21,-,MIC,-,23.5 µg/mL
CC[C@H]1OC(=O)[C@H](C)[C@@H](O[C@H]2C[C@@](C)(OC)[C@@H](O)[C@H](C)O2)[C@H](C)[C@@H](O[C@@H]2O[C@H](C)C[C@H](N(C)C)[C@H]2O)[C@](C)(OC)C[C@@H](C)C(=O)[C@H](C)[C@@H](O)[C@]1(C)O,20 strains,MIC50,-,6.25 µg/mL

MIC50, MIC90 and the like: level of inhibition, or share of isolates inhibited. Rows are shuffled and stem from different studies. Inhibition is in % at the dose shown (toxicity tests: loss of growth or viability).